Reference: patent publication US10253035B2 (priority 2016, dated 2019)

Tested on: Mtb K204
Details: compound in combination with KAN

Row | Compound | effect on KAN resistance of Mtb K204 (in words)
1 | C=CCNC(=O)CNC1=NS(=O)(=O)C(c2ccc(C)c(C)c2)=C1C | did not overcome resistance to KAN
2 | CCCNC1=NS(=O)(=O)C(c2ccc(F)cc2)=C1C | did not overcome resistance to KAN
3 | CCCNC1=NS(=O)(=O)C(c2ccc(C)cc2)=C1C | did not overcome resistance to KAN
4 | CCCNC1=NS(=O)(=O)C(c2ccc(C)c(C)c2)=C1C | did not overcome resistance to KAN
5 | CC1=C(c2ccc(F)cc2)S(=O)(=O)N=C1NCc1ccco1 | did not overcome resistance to KAN
